Anti-infective test results gathered from many reports (values: NIAID ChemDB through PubChem).

All rows: tests in culture; species: Sindbis virus; cell line: VERO; method: cytopathic effect; endpoint: EC50

Conditions beyond the fields shown may differ between rows. ECn: concentration that inhibits the pathogen or its effect by n%.

Nc1nc(N)c2nnn(C[C@H]3CC[C@@H](CO)C3)c2n1 ; value: >100 µg/mL
Nc1ncnc2c1c(Br)cn2[C@@H]1O[C@H](CO)[C@@H](O)[C@H]1O ; value: 0.2 µg/mL
Nc1nccc2c1ncn2[C@@H]1C[C@H](CO)[C@@H](O)[C@H]1O ; value: 20 µg/mL
Cc1cn([C@H]2C[C@H](O)[C@@H](CO)[C@@H]2C)c(=O)[nH]c1=O ; value: >400 µg/mL
Nc1nc(N)c2ncn(C[C@H]3CC[C@@H](CO)C3)c2n1 ; value: >200 µg/mL
COC(C)c1cn([C@@H]2O[C@H](CO)[C@@H](O)[C@H]2O)c2ncnc(N)c12 ; value: 40 µg/mL
NC(=O)c1ccnc([C@@H]2O[C@H](CO)[C@@H](O)[C@H]2O)c1 ; value: >400 µg/mL
Nc1nc2c(nnn2C[C@H]2CC[C@@H](CO)C2)c(=O)[nH]1 ; value: >200 µg/mL
Nc1ncnc2c([C@@H]3O[C@H](CO)C[C@H]3O)[nH]nc12 ; value: 400 µg/mL
Nc1ncnc2c1ncn2C1CC(CO)[C@@H](O)[C@H]1O ; value: ≥4 µg/mL
Nc1ccn([C@@H]2C[C@H](CO)[C@@H](O)[C@H]2O)c(=O)n1 ; value: 0.7 µg/mL
Cc1cn([C@H]2C[C@@H](CO)[C@H](O)C2)c(=O)[nH]c1=O ; value: >400 µg/mL
Nc1ncnc2c1ccn2[C@@H]1C[C@H](CO)[C@@H](O)[C@H]1O ; value: ≥10 µg/mL
Nc1nccc2c1ncn2[C@@H]1C=C(CO)[C@@H](O)[C@H]1O ; value: >400 µg/mL
Cc1cn([C@@H]2C[C@H](CO)[C@@H](O)C2)c(=O)[nH]c1=O ; value: >100 µg/mL
Nc1ncnc2c1ncn2C[C@H](O)CO ; value: >400 µg/mL
Cc1cn([C@@H]2C[C@H](CO)[C@H](O)C2)c(=O)[nH]c1=O ; value: >200 µg/mL
Nc1ncnc2c1ncn2[C@@H]1C=C(CO)[C@@H](O)[C@H]1O ; value: >10 µg/mL
Nc1nc(Cl)c2nnn(C[C@H]3CC[C@@H](CO)C3)c2n1 ; value: >200 µg/mL
Nc1ncnc2c1ccn2[C@@H]1O[C@H](CO)[C@@H](O)[C@H]1O ; value: >0.1 µg/mL

A second listing of 2 rows from above:

compound,value
Nc1nc(N)c2nnn(C[C@H]3CC[C@@H](CO)C3)c2n1,>100 µg/mL
Nc1ncnc2c1ncn2C1CC(CO)[C@@H](O)[C@H]1O,≥4 µg/mL